For two compounds, viscosity results are on record in the CheMixHub viscosity set.

± gives the uncertainty stated by the source.

The conditions of series [1]: 101.3 kPa.
Series [2] is described as follows: xn = mol fraction of the nth substance listed. The note with it: 101.3 kPa.

Consider `CCCC[n+]1ccccc1.O=S(=O)(F)[N-]S(=O)(=O)F`, for which the viscosity was determined as 48.8 ± 9.8 mPa·s in series [1] (293.15 K); 40 ± 8 mPa·s in series [1] (298.15 K); 33.3 ± 6.7 mPa·s in series [1] (303.15 K); 28.1 ± 5.6 mPa·s in series [1] (308.15 K); 24 ± 4.8 mPa·s in series [1] (313.15 K); 20.7 ± 4.1 mPa·s in series [1] (318.15 K). The same compound returned a viscosity in series [1] (323.15 K) of 18 ± 3.6 mPa·s.
`CCCC[n+]1ccccc1.O=S(=O)(F)[N-]S(=O)(=O)F` + CCCC[n+]1ccccc1.F[B-](F)(F)F: the viscosity in series [2] (293.15 K, x1 = 0.6) came out at 76.9 ± 16 mPa·s; in series [2] (298.15 K, x1 = 0.4) it was 80.2 ± 16 mPa·s; in series [2] (298.15 K, x1 = 0.6), 61.2 ± 12 mPa·s; in series [2] (303.15 K, x1 = 0.2), 85.7 ± 17 mPa·s; in series [2] (303.15 K, x1 = 0.4) it was 63.7 ± 13 mPa·s; in series [2] (303.15 K, x1 = 0.6), 49.6 ± 10 mPa·s. The viscosity is reported as 67.5 ± 14 mPa·s in series [2] (308.15 K, x1 = 0.2); 51.4 ± 10 mPa·s in series [2] (308.15 K, x1 = 0.4); 54.2 ± 11 mPa·s in series [2] (313.15 K, x1 = 0.2).
